For some assays here: Protein sequences can lack the tags named with them. For some assays here: Construct, isoform or probe ends are uncertain for at least one entry.
Tests used:
[1] = target: TprA (Pseudomonas aeruginosa PA14) (UniProt A0A0H2ZFZ8); test: EMSA; settings: shift above 550 nM TprA (0-1200 nM); recombinant protein; protein details: His-tag removed by TEV; label: Cy5-dCTP (PCR incorporation); probe letters rebuilt from the primers and the genome
[2] = target: T1, MvaT (Pseudomonas aeruginosa PA14) (UniProt A0A0H2ZGN7); test: EMSA; settings: shift at MvaT >= 750 nM (0-2000 nM); recombinant protein; residues 1-124; protein details: His-tag removed by TEV; label: Cy5-dCTP (PCR incorporation); probe letters rebuilt from the primers and the genome
T1 sequence (looked up): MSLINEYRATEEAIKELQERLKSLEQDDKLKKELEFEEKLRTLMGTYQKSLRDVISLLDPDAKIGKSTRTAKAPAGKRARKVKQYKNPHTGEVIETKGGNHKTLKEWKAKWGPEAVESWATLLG

What does the source list for “TTGCAGGGGTTTCGGAGAAAAAACCTGTGACCCAGAACTCTTTTTCCGTATATTTTAAAGCGAAGTCTTCAACAAGCCTTACCGAGAAAGGAAACAGGATAGTACTGAATCCAGCCACTACCAAGGGGTTAACTGATGCCAGGCTTGGAAATACGGAGCCTTTCCAAGCGACTAAAACAAAGAAGAAAGCTCCCCAGAAAAATTTAGCCCAATAGTATTTAAAGCTCAATTAGCACCCCGTACTGTCTGACCTGAGTTCAACAAAGCATTCTAAAACGATTAGAACTTCTATTTTATCCATTTCTAACAACGATTCCCACCTGGCTCGCTTTAGGCGTAACATGAAAAACCTTCATCGCTCCTAATCCGTTTCCCTTACGCCTGCCTCGCTCACCCTCTGCCTAGTCATCGAGAAATCCCCTCCCCTGTTGCCGAGTATTTCCTGCTGATGCGTGGCGGATGGCCTGCCACTGTGTGCCCCATCATCAAAGGGGGCCTCAATGACCAGGCAGTTGACCAC (double strand) [ppilL2 promoter]”?
binding result [1]: binds; binding result [2]: binds

— paper PMC8565334, “The horizontal transfer of Pseudomonas aeruginosa PA14 ICE PAPI-1 is controlled by a transcriptional triad between TprA, NdpA2 and MvaT”
